Anti-infective test results gathered from many reports (values: NIAID ChemDB through PubChem).

Common to all: tests in culture; agent: Human herpesvirus 6

An empty or dashed field is not shown. Percent inhibition refers to the dose given; in toxicity tests it is the harm to the cells. Conditions beyond the fields shown may differ between rows. ECn is the concentration giving n% inhibition of infection, replication or growth.

SMILES,strain or isolate,cells,read by,conditions,endpoint,dose,result
Nc1nc(N)c2ncn(CCOCP(=O)(O)O)c2n1,GS,HSB-2,cytopathic effect,-,EC50,-,11 µM
Nc1nc(N)c2ncn(CCOCP(=O)(O)O)c2n1,GS,HSB-2,antigen,-,EC50,-,2.8 µg/mL
O=c1[nH]c(=O)n([C@H]2C[C@H](O)[C@@H](CO)O2)cc1/C=C/Br,U1102 (TYPE 6A),HSB-2,cytopathic effect,-,EC50,-,>3.5 µM
Nc1ccn(C[C@@H](CO)OCP(=O)(O)O)c(=O)n1,GS,HSB-2,antigen,-,EC50,-,3.8 µg/mL
Nc1ncnc2c1ncn2C[C@@H](CO)OCP(=O)(O)O,U1102 (TYPE 6A),HSB-2,cytopathic effect,-,EC50,-,25 µM
Nc1ncnc2c1ncn2CCOCP(=O)(O)O,GS,HSB-2,antigen / flow cytometry,-,EC50,-,28 µM
Nc1nc2c(ncn2C[C@]2(CO)C[C@H]2CO)c(=O)[nH]1,-,Human T-lymphoblasts,-,-,EC50,-,3.5 µM
Nc1nc(N)c2ncn(C[C@@H](CO)OCP(=O)(O)O)c2n1,GS,HSB-2,cytopathic effect,-,EC50,-,8.1 µg/mL
O=c1[nH]c(=O)n([C@@H]2O[C@H](CO)[C@@H](O)[C@@H]2O)cc1/C=C/Br,GS,HSB-2,antigen / flow cytometry,-,EC50,-,>75 µM
O=c1[nH]c(=O)n([C@H]2C[C@H](O)[C@@H](CO)O2)cc1I,U1102 (TYPE 6A),HSB-2,cytopathic effect,-,EC50,-,>288 µM
Nc1ccn(C[C@@H](CO)OCP(=O)(O)O)c(=O)n1,-,Human T-lymphoblasts,cytopathic effect,-,EC50,-,2 µM
Nc1ccn(C[C@@H](CO)OCP(=O)(O)O)c(=O)n1,U1102 (TYPE 6A),HSB-2,cytopathic effect,-,EC50,-,>42 µM
O=C(O)P(=O)(O)O,GS,HSB-2,cytopathic effect,-,EC50,-,8.4 µM
Nc1nc2c(ncn2CCC(CO)CO)c(=O)[nH]1,729,HUMAN CORD BLOOD CELL,antigen,6 d,inhibition,10 µM,0%
Nc1nc(N)c2ncn(C[C@@H](CO)OCP(=O)(O)O)c2n1,GS,HSB-2,antigen / flow cytometry,-,EC50,-,27 µM
Nc1nc(N)c2ncn(C[C@@H](CO)OCP(=O)(O)O)c2n1,U1102 (TYPE 6A),HSB-2,cytopathic effect,-,EC50,-,9 µM
Nc1nc2c(ncn2COC(CO)CO)c(=O)[nH]1,GS,HSB-2,cytopathic effect,-,EC50,-,>25 µM
Nc1ncnc2c1ncn2C[C@H]1COP(=O)(O)CO1,U1102 (TYPE 6A),HSB-2,cytopathic effect,-,EC50,-,109 µM

Repeating the final 2 entries:

SMILES,strain or isolate,cells,read by,conditions,endpoint,dose,result
Nc1nc2c(ncn2COC(CO)CO)c(=O)[nH]1,GS,HSB-2,cytopathic effect,-,EC50,-,>25 µM
Nc1ncnc2c1ncn2C[C@H]1COP(=O)(O)CO1,U1102 (TYPE 6A),HSB-2,cytopathic effect,-,EC50,-,109 µM